Record: PubChem BioAssay AID624099 (ICCB-Longwood, 2012)

Aim: 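Knock-downs relieving repression by E2 of an HPV18 LCR luciferase reporter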 (primary screen)
Cells: human C33A cervical carcinoma cells (HPV-negative) stably expressing BPV1 E2 and an HPV18 LCR luciferase reporter
Knock-down reagent: siRNA pool against human genes, 40 nM
Time to read-out: 72 h
Detection: 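HPV18 LCR reporter light per well, converted to plate-wise z-scores that exclude control wells, and averaged over triplicate plates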
Direction: mean z-score and z-score: higher = stronger reporter signal, weaker E2 silencing
Rule for the call: 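Mean z ≥ 2 together with z ≥ 2 in two or more of the three replicates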
The deposit covers about 21,000 reagents; this is a part drawn at random. Over the whole deposit, 497 (2.4%) were called active. 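Higher z means weaker E2 silencing; only reporter increases were scored, and knock-downs that hurt cell survival may mask genuine repressor factors.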

Target gene	mean z-score	z-score, replicate A	z-score, replicate B	z-score, replicate C	activity call
SCN2B (GeneID 6327)	0.89	0.98	0.87	0.82	inactive
RHCG (GeneID 51458)	-0.2	0.29	-0.44	-0.46	inactive
BRI3 (GeneID 25798)	-0.47	-0.35	-0.59	-0.47	inactive
TRIM60 (GeneID 166655)	-0.42	-0.89	-0.03	-0.33	inactive
RSF1 (GeneID 51773)	0.91	0.77	1.2	0.78	inactive
EZH1 (GeneID 2145)	0.63	0.56	0.67	0.67	inactive
FAM99A (GeneID 387742)	0.32	0.15	0.32	0.49	inactive
PPP1R16A (GeneID 84988)	-1.46	-1.38	-1.88	-1.13	inactive
SLAMF6 (GeneID 114836)	-0.82	-0.93	-0.72	-0.8	inactive
NDUFS7 (GeneID 374291)	0.65	0.63	0.51	0.8	inactive
FKBP3 (GeneID 2287)	1.44	2.31	0.95	1.07	inactive
REST (GeneID 5978)	0.62	0.55	0.59	0.73	inactive
GABARAP (GeneID 11337)	0.55	0.7	0.59	0.37	inactive
LRPAP1 (GeneID 4043)	-0.33	-0.57	-0.12	-0.29	inactive
ST6GAL1 (GeneID 6480)	-0.51	-0.75	-0.31	-0.47	inactive
PBX2 (GeneID 5089)	0.41	0.3	0.56	0.36	inactive
KIF20A (GeneID 10112)	0.17	0.17	0.3	0.02	inactive
EIF3E (GeneID 3646)	-2.56	-2.47	-2.96	-2.25	inactive
TAF11L6 (GeneID 391747)	0	0.09	-0.12	0.03	inactive
SLC44A5 (GeneID 204962)	-0.61	-0.99	-0.78	-0.07	inactive
PRPF19 (GeneID 27339)	-0.86	-0.71	-0.91	-0.97	inactive
FLJ44674 (retired record) (GeneID 400535)	-0.3	-0.38	0.02	-0.54	inactive
FCGRT (GeneID 2217)	-0.41	-0.33	-0.52	-0.38	inactive
FAM216A (GeneID 29902)	-0.49	-0.1	-0.54	-0.84	inactive
HTR4 (GeneID 3360)	0.25	0.37	0.18	0.21	inactive
KIAA0930 (GeneID 23313)	0.15	-0.07	0.51	0	inactive
MRPL30 (GeneID 51263)	1.12	1.06	0.99	1.3	inactive
SMG9 (GeneID 56006)	0.31	0.45	-0.12	0.59	inactive
C20orf96 (GeneID 140680)	-0.02	-0.15	0.03	0.06	inactive
ZNF502 (GeneID 91392)	0.72	0.78	0.55	0.84	inactive
NOP10 (GeneID 55505)	0.28	0.12	0.45	0.26	inactive
FBXW8 (GeneID 26259)	0.8	0.72	0.87	0.8	inactive
RAB3GAP2 (GeneID 25782)	0.25	0.44	0.21	0.09	inactive
RAP1A (GeneID 5906)	-0.8	-0.99	-0.84	-0.56	inactive
LOC401270 (retired record) (GeneID 401270)	0.61	0.31	0.88	0.64	inactive
ATF4 (GeneID 468)	-0.25	-0.23	-0.21	-0.31	inactive
UBA52 (GeneID 7311)	-4.16	-4.1	-4.19	-4.2	inactive
LOC341370 (retired record) (GeneID 341370)	0.25	0.14	-0.03	0.65	inactive
PRDM9 (GeneID 56979)	-0.14	0.04	-0.24	-0.22	inactive
KCTD3 (GeneID 51133)	0.31	-0.3	0.63	0.6	inactive
GPR61 (GeneID 83873)	-0.34	-0.49	-0.14	-0.38	inactive
TXNDC15 (GeneID 79770)	1.8	2.42	1.58	1.41	inactive
METTL21C (GeneID 196541)	0.98	1.53	0.58	0.84	inactive
LOC389204 (retired record) (GeneID 389204)	-0.77	-0.68	-0.86	-0.77	inactive
ACOX3 (GeneID 8310)	-0.77	-0.76	-0.65	-0.9	inactive
CCDC125 (GeneID 202243)	1.76	2.02	1.54	1.74	inactive

Quoted from the entries so far for reference:
Target gene	mean z-score	z-score, replicate A	z-score, replicate B	z-score, replicate C	activity call
ST6GAL1 (GeneID 6480)	-0.51	-0.75	-0.31	-0.47	inactive
PBX2 (GeneID 5089)	0.41	0.3	0.56	0.36	inactive
KIF20A (GeneID 10112)	0.17	0.17	0.3	0.02	inactive
EIF3E (GeneID 3646)	-2.56	-2.47	-2.96	-2.25	inactive
TAF11L6 (GeneID 391747)	0	0.09	-0.12	0.03	inactive
SLC44A5 (GeneID 204962)	-0.61	-0.99	-0.78	-0.07	inactive
PRPF19 (GeneID 27339)	-0.86	-0.71	-0.91	-0.97	inactive
FLJ44674 (retired record) (GeneID 400535)	-0.3	-0.38	0.02	-0.54	inactive
FCGRT (GeneID 2217)	-0.41	-0.33	-0.52	-0.38	inactive
FAM216A (GeneID 29902)	-0.49	-0.1	-0.54	-0.84	inactive
HTR4 (GeneID 3360)	0.25	0.37	0.18	0.21	inactive

Additional results follow:
Target gene	mean z-score	z-score, replicate A	z-score, replicate B	z-score, replicate C	activity call
SLC71A1 (GeneID 64645)	0.42	0.91	0.33	0.03	inactive
ALOX5 (GeneID 240)	-0.88	-0.9	-0.82	-0.92	inactive
MED26 (GeneID 9441)	-3.35	-3.5	-3.49	-3.06	inactive
SPACA3 (GeneID 124912)	-0.34	-0.72	-0.27	-0.04	inactive
FER (GeneID 2241)	-1.42	-0.8	-1.97	-1.49	inactive
TCF3 (GeneID 6929)	-1.24	-1.32	-1.41	-0.99	inactive
FUCA2 (GeneID 2519)	-0.41	-0.45	-0.5	-0.27	inactive
MYD88 (GeneID 4615)	0.24	0.02	0.26	0.44	inactive
SLC4A10 (GeneID 57282)	1.34	1.18	1.48	1.37	inactive
MAP3K7CL (GeneID 56911)	3.57	3.4	3.68	3.64	active
MDFIC (GeneID 29969)	-0.66	-0.7	-0.89	-0.4	inactive
NRIP2 (GeneID 83714)	0.04	0.29	-0.23	0.08	inactive
MTHFSD (GeneID 64779)	-0.31	-0.27	-0.69	0.04	inactive
ACTL7B (GeneID 10880)	-0.3	-0.38	-0.34	-0.17	inactive
LUM (GeneID 4060)	0.03	-0.1	0.12	0.06	inactive
VPS45 (GeneID 11311)	-5.03	-5.27	-4.75	-5.06	inactive
MAP1LC3C (GeneID 440738)	1.25	1.1	0.95	1.7	inactive
MYCLP1 (GeneID 4611)	-0.04	-0.19	-0.05	0.12	inactive
ARSD (GeneID 414)	0.19	0.86	-0.34	0.03	inactive
NOL4L-DT (GeneID 149950)	0.29	0.01	0.56	0.31	inactive
SPACA1 (GeneID 81833)	0.74	0.81	0.84	0.55	inactive
FGF20 (GeneID 26281)	0.41	0.73	0.28	0.24	inactive
TPM3P4 (GeneID 402643)	0.26	0.2	0.18	0.41	inactive
OAF (GeneID 220323)	-0.58	-0.85	-0.24	-0.63	inactive
MT-ND2 (GeneID 4536)	0.1	0.42	-0.11	-0.01	inactive
CD163 (GeneID 9332)	-1.35	-1.38	-1.41	-1.28	inactive
ZBED5 (GeneID 58486)	-0.3	0.05	-0.02	-0.93	inactive
